A mixed list of measured activities; the numbers were collected in NIAID ChemDB.

Common to all: toxicity to cultured cells; cell line: WI-38; endpoint: CC50

CCn: concentration that lowers growth or viability of the cells by n%.

{"SMILES": "CCCCCCCCCCN=C(N)c1ccc(N2CCN(c3ccc(C(N)=NCCCCCCCCCC)cc3)CC2)cc1", "value": "7.64 µg/mL"}
{"SMILES": "Nc1nc2c(ncn2COC(CO)CO)c(=O)[nH]1", "value": "12.5 µg/mL"}
{"SMILES": "CCCN=C(N)c1ccc(N2CCN(c3ccc(C(N)=NCCC)cc3)CC2)cc1", "value": "53.9 µg/mL"}
{"SMILES": "Nc1nc(N)c2ncn(C[C@@H]3CC[C@H](P(=O)(O)O)O3)c2n1", "value": "100 µg/mL"}
{"SMILES": "NC(=NC1CCCCCC1)c1ccc(N2CCN(c3ccc(C(N)=NC4CCCCCC4)cc3)CC2)cc1", "value": ">0.69 µg/mL"}
{"SMILES": "C=CCc1nc(C)n2c(=O)[nH]c(=S)[nH]c12", "value": "100 µg/mL"}
{"SMILES": "CC1=NN(c2c(Cl)cc(Cl)cc2Cl)C(=O)C1", "value": "241 µM"}
{"SMILES": "O=c1[nH]c(=O)n(C2C[C@H](CO)[C@H]2CO)cc1C=CCl", "value": ">400 µM"}
{"SMILES": "Nc1ccn(C[C@@H](CO)OCP(=O)(O)O)c(=O)n1", "value": "10–50 µg/mL"}
{"SMILES": "Cc1nc(CC(O)CO)c2nc[nH]c(=O)n12", "value": ">400 µg/mL"}
{"SMILES": "CC[C@H](C)[C@H](N)[C@H](O)n1nc(C)c2c(Cl)c3cc(OC)ccc3nc21", "value": ">100 µg/mL"}
{"SMILES": "CC(=O)Nc1nc2c(CC(O)CO)nc(C)n2c(=O)[nH]1", "value": ">400 µg/mL"}
{"SMILES": "CCCCCCCCCCCCN=C(N)c1ccc(N2CCN(c3ccc(C(N)=NCCCCCCCCCCCC)cc3)CC2)cc1", "value": "4.54 µg/mL"}
{"SMILES": "O=c1[nH]c(=O)n([C@@H]2C[C@H](CO)[C@H]2CO)cc1C=CBr", "value": "≥750 µM"}
{"SMILES": "Nc1nc2c(ncn2C[C@H]2CC[C@@H](P(=O)(O)O)O2)c(=O)[nH]1", "value": ">100 µg/mL"}

2 of the rows above, restated:

SMILES	value
O=c1[nH]c(=O)n(C2C[C@H](CO)[C@H]2CO)cc1C=CCl	>400 µM
CC1=NN(c2c(Cl)cc(Cl)cc2Cl)C(=O)C1	241 µM

Two numbers with a dash give a range or band. Lines come from different laboratories, so protocols vary.